Experimental findings from publication PMC6514670, “Field-Based Affinity Optimization of a Novel Azabicyclohexane Scaffold HIV-1 Entry Inhibitor” (Molecules, 2019) are described below.

The data set deals with B41 SOSIP.664 trimer. Nature of the data set: Differential scanning calorimetry (thermostability of trimer with compound). On the set-up: species or system HIV-1.
Setting [1] is: B41 SOSIP.664 0.25 mg/mL + 2 μg compound, 1 h room temperature, peak of highest intensity.
Setting [2] is: B41 SOSIP.664 0.25 mg/mL + 2 μg compound, peak of second highest intensity.
The mark [3] stands for this setting: relative change of primary Tm from the inhibitor-free control.

Structures are written as SMILES. Read-outs that look alike come from different tables or passages of the source.

Consider `COc1cnc(-n2cnc(C)n2)c2[nH]cc(C(=O)C(=O)N3CC4CN(C(=O)c5ccccc5)CC4C3)c12` (stereo not drawn) [SC11], for which, under setting [1], the Tm primary came to 66.6 °C. Moreover, under setting [2], the Tm secondary was 59.4 °C. Further, the ΔTm entry under setting [3] was “+7.8 °C”.
As to `COc1cnc(-n2cnc(C)n2)c2[nH]cc(C(=O)C(=O)N3CC(CCC(=O)c4ccccc4)C3)c12` [SC15], the Tm primary was found to be 62.7 °C, the Tm secondary amounted to 71.4 °C and the ΔTm entry was “+3.9 °C”.
As to `COc1cnc(-n2cnc(C)n2)c2[nH]cc(C(=O)C(=O)NC3C4CN(C(=O)c5ccccc5)CC43)c12` (stereo not drawn) [SC28], the Tm primary under setting [1] worked out at 60.0 °C. For the same compound, under setting [2], the Tm secondary was determined as 69.5 °C. In addition, under setting [3], the ΔTm entry is “+1.2 °C”.
Take `COc1cnc(-n2cnc(C)n2)c2[nH]cc(C(=O)C(=O)N3CC=C(CNC(=O)c4ccccc4)CC3)c12` [SC45]: the Tm primary is 60.3 °C, the Tm secondary is 69.8 °C and the ΔTm result was “+1.5 °C”.
